Results published in PMC12724200 (mSphere, 2025).

The chains behind the UniProt entries cited, without tags or fusion partners. Residues count along the entry.
UniProt A0A679LAX5, 1-690: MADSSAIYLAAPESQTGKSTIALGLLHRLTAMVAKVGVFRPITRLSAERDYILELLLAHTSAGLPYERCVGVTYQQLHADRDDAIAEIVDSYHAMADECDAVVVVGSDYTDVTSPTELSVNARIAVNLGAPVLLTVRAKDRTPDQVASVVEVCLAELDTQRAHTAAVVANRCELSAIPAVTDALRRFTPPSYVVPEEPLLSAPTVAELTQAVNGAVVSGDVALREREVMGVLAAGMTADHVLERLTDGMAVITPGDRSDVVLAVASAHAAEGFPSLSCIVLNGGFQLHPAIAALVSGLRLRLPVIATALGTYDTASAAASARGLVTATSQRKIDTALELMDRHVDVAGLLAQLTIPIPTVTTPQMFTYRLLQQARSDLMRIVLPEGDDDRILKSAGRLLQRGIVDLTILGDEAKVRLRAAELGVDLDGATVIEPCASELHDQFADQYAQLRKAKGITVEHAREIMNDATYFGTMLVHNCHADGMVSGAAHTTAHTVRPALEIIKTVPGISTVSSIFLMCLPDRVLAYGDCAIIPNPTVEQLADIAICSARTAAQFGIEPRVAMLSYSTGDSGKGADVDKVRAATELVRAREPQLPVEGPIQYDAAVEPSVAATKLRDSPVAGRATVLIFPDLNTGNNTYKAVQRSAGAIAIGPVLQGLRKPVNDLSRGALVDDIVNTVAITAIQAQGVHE

Biological target: recombinant wild-type M. bovis BCG PTA (Mycobacterium bovis, UniProt A0A679LAX5)
Assay type: biochemical

Dimethyldithiocarbamate [DMDC] showed an IC50 of 951 µM.
